Drawing on article PMC9646764 (Nature Communications, 2022), this text covers Kd for 1 molecule.

The Kd is the concentration at which binding is half-saturated.

The experiment has as its target TcdB4.2 (full-length recombinant toxin B variant 4.2) (Clostridioides difficile). Nature of the experiment: BLI; as a1, KD calculated with the BLItz system software from the indicated concentrations (Supplementary Fig. 7); KD called estimated. Particulars: both partners purified.

B1: TFPI-Fc (human IgG-Fc-tagged TFPI without the GPI anchor) (Fc fusion)
chain: [sequence of about 80 residues not given]NANRIIKTTLQ[sequence of about 60 residues not given]PNGFQVDNYGTQLNAVNNSLTPQSTKVPSLF
notes: also called human TFPI; source: Expi293F, transfected, purified from culture medium as His-tagged protein
Turning to B1, the Kd is approximately 227 nM.
